Measured values from several laboratories, pooled; numbers as filed in NIAID ChemDB.

All rows: whole-cell or culture tests; species: HIV-1; measure: EC50

ECn is the concentration giving n% inhibition of infection, replication or growth.

smiles	cells	strain	mutations	method	value
CC(C)[C@H](NC(=O)OCc1ccccc1)C(=O)N[C@@H](Cc1ccccc1)[C@@H](O)[C@@H](NCc1ccccc1)C(=O)N[C@H](C(=O)NCc1nc2ccccc2[nH]1)C(C)C	MT-4	IIIB		cytopathic effect	0.14 µM
COc1ccccc1NC(=O)c1ccccc1C(O)c1ccc(OCO)c(OCO)c1	H9	LAI			12.9 µM
CN[C@@H]1[C@H](O[C@H]2[C@H](O[C@H]3[C@H](O)[C@@H](O)[C@H](N=C(N)N)[C@@H](O)[C@@H]3N=C(N)N)O[C@@H](C)[C@]2(O)C=O)O[C@@H](CO)[C@H](O)[C@H]1O	MT-4	IIIB		cytopathic effect / MTT	>200 µM
C=C1C(=O)[C@]23C[C@H]1CC[C@H]2[C@]1(C)CCC[C@@](C)(CC(=O)O)[C@H]1C[C@@H]3OC(C)=O	CEM + CEM-SS				0.9 µg/mL
Nc1ncnc2c1ncn2[C@H]1CC[C@@H](CO)O1	PBMC	A012		p24	6.3 µM
CC(C)[C@H](NC(=O)OCc1ccccc1)C(=O)N[C@@H](Cc1ccccc1)[C@@H](O)[C@@H](NCc1ccccc1)C(=O)N[C@H](C(=O)NCc1ccccc1)C(C)C	U-937	IIIB		MTT / p24	0.3 µM
CN1CCN(c2ccnc3nc(CN(C)Cc4ncccc4CCC#N)[nH]c23)CC1	C8166	IIIB		syncytia	3.536 µM
Cc1cn(CCO[C@H]2C=C[C@@H](CO)O2)c(=O)[nH]c1=O	CEM + CEM-SS	LAI		RT activity	27 µg/mL
CC(=O)Oc1ccc(CCC(=O)CCc2ccc(NC(=O)c3ccc(C)cc3)cc2)cc1OC(C)=O	TZM-bl	BaL		luciferase	23.14 µM
CC[C@H](C)C(NC(=O)c1ccccc1S)C(=O)O	CEM			XTT	5.5 µM
COc1ccc(C(=O)Nc2ccc(CCC(=O)CCc3ccc(O)c(O)c3)cc2)cc1	TZM-bl	BaL		luciferase	>200 µM
Nc1nccc2c1ncn2[C@@H]1C[C@H](CO)[C@@H](O)[C@H]1O	PBMC	A018		p24	0.22 µM
CC(C)CCC[C@@H](C)[C@H]1CC[C@H]2[C@@H]3CC[C@H]4C[C@@H](CCC=C(c5cc(Cl)c(O)c(C(=O)O)c5)c5cc(Cl)c(O)c(C(=O)O)c5)CC[C@]4(C)[C@H]3CC[C@]12C	MT-4	A17	Pyridinone-resistant (RT K103N Y181C)	cytopathic effect	20 µM
COc1ccccc1C(=O)Nc1ccccc1C(O)c1ccc([N+](=O)[O-])cc1	H9	LAI			34 µM
CN(Cc1nc2ccccc2[nH]1)Cc1ncccc1CCC(=O)NC1CC1	C8166	IIIB		syncytia	14.4 µM
CC(=O)Oc1ccc(CCC(=O)CCc2ccc(NC(=O)C3CCCCC3)cc2)cc1OC(C)=O	TZM-bl	BaL		luciferase	18.77 µM
COCCCOc1ccc(-c2cnc(C)c([C@H](OC(C)(C)C)C(=O)O)c2N2CCC(C)(C)CC2)nc1	MT-2	NL4-3		luminescence	0.0024 µM
c1ccc(-c2oncc2C(c2ccccc2)n2cncn2)cc1	MT-4	IIIB		cytopathic effect / MTT	>200 µM
COc1cc(Cl)ccc1OCCN(C)c1ccc(-c2cnc(C)c([C@H](OC(C)(C)C)C(=O)O)c2N2CCC(C)(C)CC2)cn1	MT-2	NL4-3		luminescence	0.002 µM
COC(=O)[C@H](C)NP(=O)(OC[C@@H]1C=C[C@H](n2cc(C)c(=O)[nH]c2=O)O1)Oc1ccc(Br)cc1	PBMC	IIIB		p24	0.022 µM
Cc1ccc(NC(=O)c2ccccc2SSc2ccccc2C(=O)Nc2ccc(C)cc2)cc1	CEM			XTT	9.1 µM
Cc1ncc(-c2ccc(OCCOc3ccc(C(=O)O)cc3)cn2)c(N2CCC(C)(C)CC2)c1[C@H](OC(C)(C)C)C(=O)O	MT-2	NL4-3		luminescence	0.1259 µM
O=C(/C=C/c1ccc(O)c(O)c1)CCc1ccc(NC(=O)c2ccc([N+](=O)[O-])cc2)cc1	TZM-bl	BaL		luciferase	>50 µM
CCC(C)[C@@H](C(=O)O)N(C)C(=O)c1ccccc1SSc1ccccc1C(=O)N(C)[C@H](C(=O)O)C(C)CC	CEM			XTT	>100 µM
CN(Cc1nc2ccccc2[nH]1)Cc1ncccc1CCC(=O)NCc1ccc(F)cc1	C8166	IIIB		syncytia	3.936 µM
Nc1nccc2c1ncn2[C@H]1CC[C@@H](CO)O1	PBMC	A018		p24	2.5 µM
CN(Cc1nc2ccccc2[nH]1)Cc1ncccc1CCCNS(C)(=O)=O	C8166	IIIB		syncytia	4.112 µM
O=C(O)n1sc2ccccc2c1=O	CEM			XTT	82 µM
CC(C)[C@H](NC(=O)OCc1ccccc1)C(=O)N[C@@H](Cc1ccccc1)[C@@H](O)[C@@H](NCc1ccc(Br)cc1)C(=O)N[C@H](C(=O)NCc1nc2ccccc2[nH]1)C(C)C	MT-4	IIIB		cytopathic effect	0.11 µM
CCC(O)(c1ccccc1OC)c1c(C)c(=O)[nH]c(=O)n1COCc1ccccc1	MT-4	IIIB		MTT	>90.34 µM
Cc1ncc(-c2ccc(OCCOc3ccccc3)cc2)c(N2CCC(C)(C)CC2)c1[C@H](OC(C)(C)C)C(=O)O	MT-2	NL4-3		luminescence	0.0033 µM
Cc1ncc(C(c2ccccc2)n2cncn2)c(-c2ccccc2)n1	MT-4	IIIB		cytopathic effect / MTT	>200 µM
CC(=O)Nc1nc(-c2cccc(NC(=O)C(CNC(=O)[C@@H](N)CCCCN)NC(=O)[C@@H](N)CCCCN)c2)cs1		NL4-3		luciferase	1.78 µM
C[C@H]1CO[C@@H]2Cn3cc(C(=O)NCc4ccc(F)cc4F)c(=O)c(O)c3C(=O)N12	CBMC	NL4-3	E138K/R263K	RT activity	0.0012 µM
COc1ccc(/C=C/CSc2nc(C(C)c3c(Cl)cccc3Cl)c(C)c(=O)[nH]2)cc1	MT-4	NNRTI-resistant	RT-Y188L	cytopathic effect / MTT	126 µM
Cc1cccnc1CN(CCCCN)Cc1nc2nccc(N3CCN(C)CC3)c2[nH]1	C8166	IIIB		syncytia	0.005 µM
Nc1nccc2c1ncn2[C@@H]1C=C(CO)[C@@H](O)[C@H]1O	PBMC	A018		p24	0.016 µM
Cc1ncc(-c2ccc(OCCOc3ccc(Cl)cc3)cn2)c(N2CCC(C)(C)CC2)c1[C@H](OC(C)(C)C)C(=O)O	MT-2	NL4-3		luminescence	0.0039 µM
CC[C@H](C)[C@H](NC(=O)c1ccccc1SSc1ccccc1C(=O)N[C@H](C(=O)O)[C@@H](C)CC)C(=O)O	CEM	RF1		XTT	6.3 µM
Cc1cccc(C(C)c2c(C)c(=O)[nH]c(=O)n2COCc2ccccc2)c1	MT-4	IIIB		MTT	>343 µM
CC(C)[C@H](NC(=O)[C@H](NCc1ccccc1)[C@H](O)[C@H](Cc1ccccc1)NC(=O)[C@@H](NC(=O)OCc1ccccc1)C(C)(C)C)C(=O)NCc1ccccc1	MT-4	RF		p24	0.534 µM
c1ccc(-c2oncc2C(c2ccccc2)n2ccnc2)cc1	MT-4	IIIB		cytopathic effect / MTT	>76 µM
COc1cnc(-n2cnc(C)n2)c2c1c(C(=O)C(=O)N1CCN(C(=O)c3ccccc3)CC1)cn2COP(=O)(O)O	U-87	NL4-3	M426P	luciferase	0.0099 µM
COc1ccc(/C=C/CSc2nc(Cc3c(F)cccc3F)c(C)c(=O)[nH]2)cc1	MT-4	NNRTI-resistant	RT-Y188L	cytopathic effect / MTT	>393 µM
Cc1ccc(C(=O)Nc2ccc(CCC(=O)CCc3ccc(O)c(O)c3)cc2)cc1	TZM-bl	BaL		luciferase	36.3 µM
CCC(c1ccc(C)cc1)c1c(C)c(=O)[nH]c(=O)n1COCc1ccccc1	MT-4	IIIB		MTT	>43.7 µM
Cc1cn([C@H]2C=C[C@@H](CO)O2)c(=O)[nH]c1=O	CEM + CEM TK-	IIIB		p24	0.556 µM
CC(=O)Nc1nc(-c2cccc(NC(=O)C(CNC(=O)[C@@H](N)CCCN=C(N)N)NC(=O)[C@@H](N)CCCN=C(N)N)c2)cs1		NL4-3		luciferase	1.79 µM
COc1ccc(C(O)c2ccccc2C(=O)Nc2ccccc2OC)cc1	H9	LAI			>100 µM
CC(C)(C)NC(=O)c1ccccc1SSc1ccccc1C(=O)NC(C)(C)C	CEM			XTT	58 µM
COc1ccccc1NC(=O)c1ccccc1C(O)c1cccc([N+](=O)[O-])c1	H9	LAI			7.1 µM
Nc1nc2c(ncn2[C@H]2C=C[C@@H](OCP(=O)(O)O)C2)c(=O)[nH]1	MT-4			p24	138 µM
O=C(O)CCNC(=O)c1ccccc1SSc1ccccc1C(=O)NCCC(=O)O	CEM			XTT	7.8 µM
C=Cc1cc(N(CC)CC)nc(S(=O)(=O)Cc2ccc(OC)cc2)n1	MT-4	NNRTI-resistant	RT-Y181L	cytopathic effect / MTT	>42.9 µM
c1ccc(-c2ncc(C(c3ccccc3)n3cncn3)c(-c3ccccc3)n2)cc1	MT-4	IIIB		cytopathic effect / MTT	>200 µM
C=C(c1ccccc1)c1c(C)c(=O)[nH]c(=O)n1COCc1ccccc1	MT-4	IIIB		MTT	5.27 µM
CC(=O)Nc1ccc(SSc2ccc(NC(C)=O)cc2C(N)=O)c(C(N)=O)c1	MT-4	AZT-resistant		XTT	1.6 µM

The last 4 rows once more:

| smiles | cells | strain | mutations | method | value |
|---|---|---|---|---|---|
| C=Cc1cc(N(CC)CC)nc(S(=O)(=O)Cc2ccc(OC)cc2)n1 | MT-4 | NNRTI-resistant | RT-Y181L | cytopathic effect / MTT | >42.9 µM |
| c1ccc(-c2ncc(C(c3ccccc3)n3cncn3)c(-c3ccccc3)n2)cc1 | MT-4 | IIIB |  | cytopathic effect / MTT | >200 µM |
| C=C(c1ccccc1)c1c(C)c(=O)[nH]c(=O)n1COCc1ccccc1 | MT-4 | IIIB |  | MTT | 5.27 µM |
| CC(=O)Nc1ccc(SSc2ccc(NC(C)=O)cc2C(N)=O)c(C(N)=O)c1 | MT-4 | AZT-resistant |  | XTT | 1.6 µM |

Lines come from different laboratories, so protocols vary. An empty or dashed field is not shown.